A mixed list of measured activities; the numbers were collected in NIAID ChemDB.

All rows: host cell toxicity; cells: MT-4; read-out: CC50

CCn is the concentration with n% toxicity to the cells. Rows are shuffled and stem from different studies. An empty or dashed field is not shown.

compound	method	result
CCN1C[C@H](C)N2C(=C(O)C3C(=O)N4Cc5ccc(F)cc5OCCCS(=O)(=O)N(C)C(=N4)C32)C1=O	-	11.7 µM
CC(C)(C)OC(=O)N(CCCCCC(=O)OC[C@H]1O[C@@H](n2ccc(N)nc2=O)CS1)CCCCCN(Cc1ccccc1)C(=O)OC(C)(C)C	-	50 µM
COc1cc(Oc2nc(Nc3ccc(C#N)cc3)nc3ccsc23)ccc1-c1ccc(C#N)cc1	MTT	246.1 µM
O=C(CCCCCNCCCCCCNCc1ccccc1)Nc1ccn([C@H]2CS[C@@H](COC(=O)CCCCCNCCCCCCNCc3ccccc3)O2)c(=O)n1	-	10 µM
CCN(C(=O)C(=O)N(C)C)C1CN(C)CCn2c1nc(C(=O)NCc1ccc(F)cc1)c(O)c2=O	microscopy	>1 µM
O=[N+]([O-])c1ccc(Nc2nnnn2-c2cccc(C(F)(F)F)c2)cc1	MTT / absorbance	3.2 µM
N#Cc1ccc(Nc2nc(Oc3ccc(-c4ccc(C#N)cc4)c(C#N)c3)c3sccc3n2)cc1	MTT	192.1 µM
COc1cccc2c1c(/C(O)=C\C(=O)C(=O)O)cn2Cc1ccc(F)cc1	MTT	47.5 µM
Cc1cc(-c2ccc(C#N)cc2)ccc1Oc1nc(Nc2ccc(C#N)cc2)nc2ccsc12	MTT	18.5 µM
Cc1ccc(-c2nnc(-c3ccc(NS(=O)(=O)c4ccc(C)cc4)cc3)o2)cc1	-	89 µg/mL
O=C(O)CC1C/C(=C\c2cc(O)c(O)c(O)c2)C(=O)/C(=C/c2cc(O)c(O)c(O)c2)C1	MTT	40 µM
CCN1C[C@H](C)N2C(=C(O)C3C(=O)N4Cc5ccc(F)cc5C(=O)NCCCCCCN(C)C(=N4)C32)C1=O	-	0.5 µM
Cc1cn([C@H]2C[C@@H](OCP(=O)(O)O)CO2)c(=O)[nH]c1=O	-	>343 µM
Cc1ccc(-c2nnc(-c3ccc(N)cc3)o2)cc1	-	35 µg/mL
O=C(CCCCCNCCCCCNCc1ccccc1)Nc1ccn([C@H]2CS[C@@H](CO)O2)c(=O)n1	-	>50 µM
COc1cccc2c1c(/C(O)=C\C(=O)C(=O)O)cn2Cc1cc(F)ccc1F	MTT	24 µM
Cc1cc(CNC(=O)c2nc3n(c(=O)c2O)CCNCC3N(C)C(=O)C(=O)N(C)C)ccc1F	microscopy	>1 µM
CC[C@@H](NS(=O)(=O)c1ccc(OC)cc1)c1n[nH]c(=S)o1	-	125 µg/mL
Cc1cc(CNC(=O)c2nc3n(c(=O)c2O)CCN(C(C)C)CC3N(C)C(=O)C(=O)N(C)C)ccc1F	microscopy	>1 µM
CCOP(=O)(O)COCCn1cnc2c(=O)[nH]c(N)nc21	-	>2.6 µg/mL
Cc1ccc2c(c1)C(=O)N(CCOC(=S)Nc1ccc(Cl)c(C(F)(F)F)c1)C2=O	-	>100 µM
CN1C/C(=C\c2ccc([N+](=O)[O-])c(O)c2)C(=O)/C(=C/c2ccc([N+](=O)[O-])c(O)c2)C1	MTT	1.9 µM
C[C@@H](NS(=O)(=O)c1ccc(Cl)cc1)C(=O)NN	-	125 µg/mL
Nc1ccn([C@H]2C=C[C@@H](CO)O2)c(=O)n1	-	30 µM
O=C1CSC(=Nc2cccc(C(F)(F)F)c2)N1c1cccc(C(F)(F)F)c1	MTT / absorbance	>100 µM
O=C1/C(=C/c2cc(O)c(O)c(O)c2)CSC/C1=C\c1cc(O)c(O)c(O)c1	MTT	100 µM
Nc1nc(=S)c2ncn(CCOCP(=O)(O)O)c2[nH]1	-	>9.5 µg/mL
O=S(=O)(NCCCc1n[nH]c(=S)o1)c1ccc(Cl)cc1	-	74 µg/mL
COc1cccc2c1c(/C(O)=C/C(=O)C(=O)O)cn2Cc1ccc(F)cc1.COc1cccc2c1c(/C(O)=C/C(=O)C(=O)O)cn2Cc1ccc(F)cc1.[Mg+2].[Mg+2]	MTT	24.5 µM
CN(C)C(=O)C(=O)N1CCn2c(nc(C(=O)NCc3ccc(F)cc3)c(O)c2=O)C1	microscopy	>1 µM
Cc1ccc(NC(=S)OC[C@@H](C)N2C(=O)c3ccccc3C2=O)cc1	-	>100 µM
Cc1cc(Oc2nc(Nc3ccc(C#N)cc3)nc3ccsc23)ccc1-c1ccc(C#N)cc1	MTT	187.3 µM
COC(=O)c1ccccc1NCC(O)Cn1c(C(=O)NC(C)(C)C)cc2cc(Cl)ccc21	-	112 µM
O=C1/C(=C/c2ccc(O)c(O)c2)CN(Cc2ccccc2)C/C1=C\c1ccc(O)c(O)c1	MTT	4.7 µM
Nc1ncnc2c1ccn2CCOCP(=O)(O)O	-	>8.27 µg/mL
Nc1ccn([C@H]2CS[C@@H](COC(=O)CCCCCNCc3ccccc3)O2)c(=O)n1	-	>50 µM
COc1ccc(CCNC(=S)OCCNC(=O)c2ccccc2C(=O)O)cc1OC	-	>100 µM
Cc1cc(-c2ccc(C#N)cc2)cc(Cl)c1Oc1nc(Nc2ccc(C#N)cc2)nc2ccsc12	MTT	142.7 µM
CC(C)(C)OC(=O)N(CCCCCC(=O)OC[C@H]1O[C@@H](n2ccc(N)nc2=O)CS1)Cc1ccccc1	-	100 µM
FC(F)(F)c1cccc(-n2nnnc2NCc2ccccc2)c1	MTT / absorbance	>100 µM
O=C(CCCCCNCc1ccccc1)Nc1ccn([C@H]2CS[C@@H](COC(=O)CCCCCNCc3ccccc3)O2)c(=O)n1	-	>50 µM
CCOC(=O)c1cn(CC(O)CNc2cccc(Cl)c2)cc1-c1ccccc1	-	42.7 µM
CC(C)(C)OC(=O)N(CCCCCC(=O)Nc1ccn([C@H]2CS[C@@H](COC(=O)CCCCCN(CCCCCN(Cc3ccccc3)C(=O)OC(C)(C)C)C(=O)OC(C)(C)C)O2)c(=O)n1)CCCCCN(Cc1ccccc1)C(=O)OC(C)(C)C	-	10 µM
OC1/C(=C/c2ccc(Cl)c(Cl)c2)CSC/C1=C\c1ccc(Cl)c(Cl)c1	MTT	119 µM
CCOC(=O)c1cn(CC(O)CNc2ccccc2N)cc1-c1ccccc1	-	0.8 µM
CN1CCn2c(nc(C(=O)NCc3ccc(F)cc3)c(O)c2=O)C(NCC2CCCCC2)C1	microscopy	>1 µM
CCN1C/C(=C\c2ccc([N+](=O)[O-])c(O)c2)C(=O)/C(=C/c2ccc([N+](=O)[O-])c(O)c2)C1	MTT	4 µM
CC(C)(C)OC(=O)N(CCCCCC(=O)Nc1ccn([C@H]2CS[C@@H](CO)O2)c(=O)n1)CCCCCN(Cc1ccccc1)C(=O)OC(C)(C)C	-	10 µM
Cc1cn([C@@H]2OC[C@H](OCCP(=O)(O)O)[C@H]2O)c(=O)[nH]c1=O	-	>250 µM
CCOC(=O)c1cn(CC(O)CNc2cccc(C)c2)cc1-c1ccccc1	-	22.2 µM
Nc1nc2c(ncn2CCOCP(=O)(O)O)c(=O)[nH]1	-	>0.2 µg/mL
O=C1CSC(=Nc2cccc(C(F)(F)F)c2)N1c1ccc([N+](=O)[O-])cc1	MTT / absorbance	48 µM
O=C(O)CC1C/C(=C\c2ccc(O)c(O)c2)C(=O)/C(=C/c2ccc(O)c(O)c2)C1	MTT	41 µM
Cc1ccc2c(c1)C(=O)N(CCOC(=S)Nc1ccc(I)cc1)C2=O	-	>100 µM

A second listing of 4 rows from above:

compound | method | result
O=C(CCCCCNCCCCCCNCc1ccccc1)Nc1ccn([C@H]2CS[C@@H](COC(=O)CCCCCNCCCCCCNCc3ccccc3)O2)c(=O)n1 | - | 10 µM
O=C(O)CC1C/C(=C\c2ccc(O)c(O)c2)C(=O)/C(=C/c2ccc(O)c(O)c2)C1 | MTT | 41 µM
O=C1/C(=C/c2ccc(O)c(O)c2)CN(Cc2ccccc2)C/C1=C\c1ccc(O)c(O)c1 | MTT | 4.7 µM
CC(C)(C)OC(=O)N(CCCCCC(=O)OC[C@H]1O[C@@H](n2ccc(N)nc2=O)CS1)CCCCCN(Cc1ccccc1)C(=O)OC(C)(C)C | - | 50 µM